Data on two molecules can be found in US5677432A, “Immunological detection of organophosphates” (dated 1997).

This experiment concerns cholinesterase. Nature of the experiment: Inhibition of cholinesterase activity, pesticide biosensor detector kit (Enzytec).

Bounds are passed on as bounds.

Turning to `CCOP(=S)(OCC)Oc1ccc([N+](=O)[O-])cc1`, the “concentration showing inhibition of cholinesterase” value is > 2 ppm. To `COP(=S)(OC)SCn1nnc2ccccc2c1=O` belongs “greater than 0.3 ppm”.
